Earlier results as cited in patent publication US7595003B2, “On-board water treatment and management process and apparatus” (priority 2004, dated 2009).

Tested on: Cryptosporidium oocysts
Settings: cited from earlier work

chlorine
contact time required to achieve the same level of disinfection (80 μg/L chlorine dosage, oocysts not shaken with sand): over 90 minutes
vitality of oocysts (oocysts shaken with sand, then exposed to chlorine for 5 minutes): significant decrease of vitality
